Assay results: patent US20230192660A1 (priority 2020, published 2023)

Target: mature SARSCoV2 M^pro (Severe acute respiratory syndrome coronavirus 2, UniProt P0DTD1)
Experiment: biochemical

CC(C)(C)CC(=O)N[C@H](C(=O)N1C[C@H]2[C@@H]([C@H]1C(=O)NC(C[C@@H]1CCNC1=O)C(=O)C(N)=O)C2(C)C)C(C)(C)C (some centres unmarked) [ML1001] gave an IC50 (IC50 SARSCov2 Mpro, 20 nM SARSCoV2 Mpro, 30 min incubation) of 20 nM and an IC50 (IC50 against SARS-CoV-2 Mpro, Example 6) of less than 50 nM.
